Here are results for three molecules from PMC6256925, “The Anti-HIV Actions of 7- and 10-Substituted Camptothecins” (Molecules, 2009).

Assay type in all cases: cell-based
One data set has as its system HIV-2CBL-20. Kind of data set: Syncytia assay (CPE inhibition), HIV-2CBL-20 in C8166 cells. As to conditions: ratio CC50 / EC50. The method, then: (§1) In the presence of 100 μL of various concentrations of the tested compound, C8166 cells (4 × 10^5cells/mL) were infected with virus (HIV-1IIIB, HIV-2CBL-20 or HIV-2ROD) at a multiplicity of infection (M.O.I.) of 0.06. The final volume per well was 200 μL. Control assays were performed without the testing compounds in HIV-1 IIIB infected and uninfected cultures. AZT was included as positive control. After three days of culture, the cytopathic effect (CPE) was measured by counting the number of syncytia in each well under an inverted microscope. EC50 was then calculated.

The test system of another data set is HIV-1KM018. Kind of data set: Inhibition of HIV-1 p24 antigen production in PBMC. Conditions: HIV-1KM018 in PBMC; ratio CC50 / EC50. The method, then:
Adequate numbers of PHA activated normal PBMC were incubated with HIV-1KM018 (M.O.I. = 0.03) in presence of varying concentrations of the compound. After 3 h of virus adsorption, the cells were washed twice with PBS and incubated with or without various concentration of compound in culture medium supplemented with 50 U/mL human recombinant IL-2 at 1.2 × 10^6 cells/mL for seven days. Half of the medium was changed with corresponding compound concentrations on the third day. At seven days post-infection, HIV-1 p24 antigen in cell-free culture supernatants was analyzed by ELSIA. The percent inhibition of HIV-1 p24 antigen production in PBMC was calculated.

Another data set relates to HIV-1IIIB. Kind of data set: Syncytia assay (CPE inhibition), HIV-1IIIB in C8166 cells. As to conditions: ratio CC50 / EC50. The method, then:
as §1

Another data set has as its system HIV-2ROD. Kind of data set: Syncytia assay (CPE inhibition), HIV-2ROD in C8166 cells. As to conditions: ratio CC50 / EC50. The method, then:
as §1

For the molecule `CC[C@@]1(O)C(=O)OCc2c1cc1n(c2=O)Cc2cc3ccccc3nc2-1` [Compound 1, Camptothecin], the “TI (therapeutic index)” value is 34.5 with HIV-2CBL-20, 10.3 in the data set on HIV-1KM018, 24.2 with HIV-1IIIB and 20.6 with HIV-2ROD.

Take `CC[C@@]1(O)C(=O)OCc2c1cc1n(c2=O)Cc2cc3cc(O)ccc3nc2-1` [Compound 2, 10-hydroxycamptothecin]: the “TI (therapeutic index)” value was 10.7 in the data set with HIV-2CBL-20, 3.5 with HIV-1KM018, 4.2 in the data set with HIV-1IIIB and 5.6 in the data set with HIV-2ROD.

Take `CC[C@@]1(O)C(=O)OCc2c1cc1n(c2=O)Cc2c-1nc1ccccc1c2CO` [Compound 3, 7-Hydroxymethylcamptothecin]: the “TI (therapeutic index)” value in the data set with HIV-2CBL-20 came to 317.0; with HIV-1KM018, 66.7; in the data set with HIV-1IIIB, 198.1; in the data set on HIV-2ROD, 66.0.
